Anti-infective test results gathered from many reports (values: NIAID ChemDB through PubChem).

Shared fields: growth or infection tests; agent: Mycobacterium avium; endpoint: MIC

Lines come from different laboratories, so protocols vary.

smiles,strain,conditions,result
FC(F)(F)c1ccc(-n2c(=S)oc3ccc(Cl)cc3c2=S)cc1,MY330/88,14 d,62.5 µM
COc1cccc(CSc2ncn[nH]2)c1,MY330/88,-,500 µM
COc1ccc2c(=O)n(-c3ccc([N+](=O)[O-])cc3)c(=O)oc2c1,CNCTC MY330/88,-,32 µM
Clc1ccc2c(c1)nc1cc(Nc3ccccc3)c(=NC3CCCCC3)cc-1n2-c1ccccc1,8775,-,2 µg/mL
O=c1oc2ccc([N+](=O)[O-])cc2c(=O)n1-c1cccc(F)c1,CNCTC MY330/88,-,250 µM
COc1ccccc1NC(=O)OCCN(C)C,MY330/88,-,1000 µM
Fc1ccc(CSc2ncn[nH]2)cc1F,MY330/88,-,500 µM
CCCCCCCCOc1ccccc1NC(=O)OCC[NH+]1CCCC1,MY330/88,-,16 µM
S=c1oc2ccc(Br)cc2c(=S)n1-c1ccc(Br)cc1,MY330/88,21 d,32 µM
COc1ccc2c(=O)n(-c3ccc(Cl)cc3)c(=O)oc2c1,CNCTC MY330/88,-,32 µM
CCCCCCCOc1cccc(NC(=O)OCCN2CCCCC2)c1,MY330/88,-,32 µM
COc1ccc2oc(=O)n(-c3ccc(C)cc3)c(=O)c2c1,CNCTC MY330/88,-,125 µM
CCCCCCCCOc1ccccc1NC(=O)OCCN(C)C,MY330/88,-,16 µM
COc1ccc2oc(=O)n(-c3ccc(C(F)(F)F)cc3)c(=S)c2c1,MY330/88,14 d,125 µM
CCOC(=O)c1ccc(-n2c(=O)oc3ccc(Cl)cc3c2=O)cc1,CNCTC MY330/88,-,32 µM
COc1ccc2oc(=S)n(-c3ccc(C)cc3)c(=S)c2c1,MY330/88,21 d,32 µM
FC(F)(F)c1cccc(CSc2ncn[nH]2)c1,MY330/88,-,250 µM
Cc1ccc2oc(=S)n(-c3ccc(C(F)(F)F)cc3)c(=S)c2c1,MY330/88,14 d,32 µM
Cc1ccc2c(=O)n(-c3ccc(Cl)c(Cl)c3)c(=O)oc2c1,CNCTC MY330/88,-,31 µM
COc1ccc2oc(=S)n(-c3ccc(Br)cc3)c(=S)c2c1,MY330/88,14 d,62.5 µM
Cn1cnnc1SCc1ccc(C#N)cc1,MY330/88,-,>1000 µM
Cc1ccc2oc(=S)n(-c3ccc(Cl)c(Cl)c3)c(=S)c2c1,MY330/88,14 d,8 µM
O=c1oc2ccc([N+](=O)[O-])cc2c(=O)n1-c1ccc(Cl)c(Cl)c1,CNCTC MY330/88,-,125 µM

For reference, 2 entries again:

smiles | strain | conditions | result
COc1cccc(CSc2ncn[nH]2)c1 | MY330/88 | - | 500 µM
COc1ccc2oc(=S)n(-c3ccc(C)cc3)c(=S)c2c1 | MY330/88 | 21 d | 32 µM

Blank or dashed fields: not listed here.